Only a part is listed here, and it is no random draw.
Each compound was assayed on HepG2 Srxn1-GFP reporter cells (+30 nM CDDO-Me) (assay: Srxn1-GFP intensity median modified Z-score relative to plate median; higher = stronger NRF2 / oxidative stress reporter activation, active = hit call of the paper). Settings: 10 µM; exposure time: 24h;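 active = median modified Z-score above 1.96; inactive = 1.96 or below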.
In short: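 Per-cell cytoplasmic GFP was measured on confocal images of formaldehyde-fixed, Hoechst-stained HepG2 Srxn1-GFP BAC reporter cells, excluding images with fewer than 100 cells. Before this, the cells (20,000 per well, 96-well plates) were co-exposed for 24 h to compound at 10 μM and an NRF2 activator at 30 nM with ≤0.1% DMSO, in three replicate plates. Each value is the median over replicates of the per-plate modified Z-score of GFP intensity. That score was scaled with 1.4826 × median absolute deviation.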
With O=P(O)(O)F [euspeclibcmpd2451] the “Srxn1-GFP intensity median modified Z-score” value was inactive: -0.14.
